Measurements as given in patent US10010619B2, “Bipartite inhibitors of bacterial RNA polymerase” (priority 2011, dated 2018).

The chains behind the UniProt entries cited, without tags or fusion partners. Where a name states a change or a piece, a line headed by the entry shows the natural chain unless it says otherwise.
UniProt P0A8V2: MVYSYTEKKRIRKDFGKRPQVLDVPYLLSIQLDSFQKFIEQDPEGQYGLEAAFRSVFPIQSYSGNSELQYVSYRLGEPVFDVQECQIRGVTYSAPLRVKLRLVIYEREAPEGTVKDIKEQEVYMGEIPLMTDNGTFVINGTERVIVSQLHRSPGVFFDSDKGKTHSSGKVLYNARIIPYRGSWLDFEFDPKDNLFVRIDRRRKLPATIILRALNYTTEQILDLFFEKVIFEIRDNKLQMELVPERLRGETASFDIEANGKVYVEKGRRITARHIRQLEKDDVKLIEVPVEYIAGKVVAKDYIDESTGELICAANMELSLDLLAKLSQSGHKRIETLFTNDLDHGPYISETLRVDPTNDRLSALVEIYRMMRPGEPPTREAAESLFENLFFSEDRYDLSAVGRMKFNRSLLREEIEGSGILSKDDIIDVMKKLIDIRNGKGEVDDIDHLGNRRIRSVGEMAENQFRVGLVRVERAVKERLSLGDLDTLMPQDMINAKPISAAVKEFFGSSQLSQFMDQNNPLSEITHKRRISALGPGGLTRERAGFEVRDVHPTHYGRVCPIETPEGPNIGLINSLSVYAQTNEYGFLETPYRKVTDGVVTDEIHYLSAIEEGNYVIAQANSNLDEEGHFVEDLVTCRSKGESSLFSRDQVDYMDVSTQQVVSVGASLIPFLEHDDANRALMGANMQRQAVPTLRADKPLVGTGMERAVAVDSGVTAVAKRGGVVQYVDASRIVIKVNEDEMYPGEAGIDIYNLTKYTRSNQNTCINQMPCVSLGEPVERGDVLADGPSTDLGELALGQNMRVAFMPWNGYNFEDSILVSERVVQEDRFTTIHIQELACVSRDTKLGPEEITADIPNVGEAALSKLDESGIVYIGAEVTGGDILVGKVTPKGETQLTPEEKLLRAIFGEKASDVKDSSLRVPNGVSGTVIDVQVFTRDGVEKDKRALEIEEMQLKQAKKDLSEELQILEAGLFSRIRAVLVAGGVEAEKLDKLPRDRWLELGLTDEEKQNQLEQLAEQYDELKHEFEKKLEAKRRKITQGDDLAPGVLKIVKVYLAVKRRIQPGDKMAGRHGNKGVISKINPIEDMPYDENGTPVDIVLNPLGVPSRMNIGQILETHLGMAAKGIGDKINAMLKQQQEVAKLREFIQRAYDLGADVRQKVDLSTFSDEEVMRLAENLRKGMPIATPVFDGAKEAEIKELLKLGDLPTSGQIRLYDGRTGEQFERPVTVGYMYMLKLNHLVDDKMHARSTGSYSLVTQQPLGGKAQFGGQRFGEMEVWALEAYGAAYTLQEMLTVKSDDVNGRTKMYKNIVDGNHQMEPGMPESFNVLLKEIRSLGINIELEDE

Target: T1, GE23077-resistant Escherichia coli RNAP derivative ([Asp565]β-RNAP) (Escherichia coli, UniProt P0A8V2, E565D)
T1 construct: made in house
Type: biochemical
Procedure: Fluorescence-detected RNA polymerase assays with E. coli RNA polymerase were performed by a modification of the procedure of Kuhlman et al., 2004 [Kuhlman, P., Duff, H. and Galant, A. (2004) A fluorescence-based assay for multisubunit DNA-dependent RNA polymerases. Anal. Biochem. 324, 183-190]. Reaction mixtures contained (20 μl): 0-100 nM test compound, 75 nM Escherichia coli RNA polymerase σ^70 holoenzyme or Escherichia coli RNA polymerase σ^70 holoenzyme derivative (prepared as in Feklistov, A., Mekler, V., Jiang, Q., Westblade, L., Irschik, H., Jansen, R., Mustaev, A., Darst, S., and Ebright, R. (2008) Proc. Natl. Acad. Sci. USA 105, 14820-14825), 20 nM 384 bp DNA fragment containing the bacteriophage […] N25 promoter, 100 μM ATP, 100 μM GTP, 100 μM UTP, 100 μM CTP, 50 mM Tris-HCl, pH 8.0, 100 mM KCl, 10 mM MgCl2, 1 mM DTT, 10 μg/ml bovine serum albumin, and 5.5% glycerol. Reaction components other than DNA and NTPs were pre-incubated for 10 min at 37° C. […] RNA was quantified by addition of 100 μl RiboGreen RNA Quantitation Reagent (Invitrogen, Inc.; 1:500 dilution in Tris-HCl, pH 8.0, 1 mM EDTA), followed by incubation for 10 min at 25° C., followed by measurement of fluorescence intensity [excitation wavelength=485 nm and emission wavelength=535 nm; QuantaMaster QM1 spectrofluorimeter (PTI, Inc.)]. […]

With GE23077 [reference compound] the IC50 was over 100 µM.
